{"source": "paper PMC2711989", "about": "(Cancer research, 2009)", "key": {"BxPC-3 cell line": {"system": "BxPC-3 cell line", "test": "Radiotracer cell binding and internalization, BxPC-3 cells", "type": "cell-based, human", "conditions": "BxPC-3, one minute, mean ± SD, n = 4", "how_it_was_run": "(§1)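 3.75 × 10^6 cells were incubated with 0.2 μCi radiotracer in serum-free medium, pH 7.2, over a time course or for 1 h, n = 4 per cell line per time point. Bound fraction was γ-counted as cell pellet vs supernatant. Acid wash (0.2 mol/L sodium acetate, 0.5 mol/L NaCl, pH 2.5, 4°C) then released surface activity; internalized fraction was pellet vs released activity.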"}, "DX3puroβ6 cell line": {"system": "DX3puroβ6 cell line", "test": "Radiotracer cell binding and internalization, DX3puroβ6 cells", "type": "cell-based, human", "conditions": "mean ± SD, n = 4", "how_it_was_run": "as §1"}}, "note": "Where “and” joins values, the source holds several entries; their conditions need not be identical. Equal values may be shown once."}
{"smiles": "CC(C)C[C@H](NC(=O)[C@H](CC(=O)O)NC(=O)CNC(=O)[C@H](CCCNC(=N)N)NC(=O)[C@H](CC(C)C)NC(=O)[C@H](CC(N)=O)NC(=O)[C@@H]1CCCN1C(=O)[C@@H](NC(=O)[C@H](C)NC(=O)[C@H](CC(N)=O)NC(=O)CCOCCOCCOCCOCCOCCOCCOCCOCCOCCOCCOCCOCCOCCOCCOCCOCCOCCOCCOCCOCCOCCOCCOCCOCCOCCOCCOCCOCCNC(=O)c1ccc(F)cc1)C(C)C)C(=O)N[C@@H](CCC(N)=O)C(=O)N[C@H](C(=O)N[C@@H](CC(C)C)C(=O)N[C@@H](C)C(=O)N[C@@H](CCC(N)=O)C(=O)N[C@@H](CCCCN)C(=O)N[C@H](C(=O)N[C@@H](C)C(=O)N[C@@H](CCCNC(=N)N)C(=O)N[C@H](C(N)=O)[C@@H](C)O)C(C)C)C(C)C", "note": "[[^18F]FBA-PEG28-A20FMDV2]", "values": [{"measurement": "radiotracer bound to cells within one minute", "setting": "BxPC-3 cell line", "result": "24.5 ± 1.2% and ~25%"}, {"measurement": "radiotracer bound to cells within one minute", "setting": "DX3puroβ6 cell line", "result": "30.5 ± 2.7", "unit": "%"}]}
